Pooled drug test results. Numbers come from NIAID ChemDB, via PubChem.

Shared fields: target-level tests; agent: HIV-1; target: Protease

Conditions beyond the fields shown may differ between rows.

SMILES,strain or isolate,changes,read by,read-out,result
COc1ccc(CCOC(=O)[C@H]2[C@H](O)[C@H](Cc3ccccc3)NC(=O)N2Cc2ccc(OC)cc2)cc1,IIIB,,,Ki,>12.5 µM
Cc1cc(N)cc(C)c1OCC(=O)N[C@@H](Cc1ccccc1)C[C@H](O)[C@H](Cc1ccccc1)NC(=O)O[C@@H]1CO[C@H]2OCC[C@H]21,,,,IC50,<0.0005 µM
COc1ccc2c(c1)OCCCCCN(C[C@@H](O)[C@H](Cc1ccccc1)NC(=O)O[C@H]1CO[C@H]3OCC[C@H]31)S2(=O)=O,,,substrate cleavage,Ki,0.00015 µM
CC(=O)Nc1ccc(S(=O)(=O)N(CC(C)C)C[C@@H](O)[C@H](Cc2ccccc2)NC(=O)O[C@H]2CCOC2)cc1,,,HPLC,Ki,0.02 µM
CNC(=O)C1NC[C@H](Cc2ccccc2)N(CC(O)CN(CC2CCCC2)S(=O)(=O)c2ccc(OC)cc2)C1=O,,,HPLC,Ki,0.6 µM
COc1ccc(S(=O)(=O)N(CC(C)C)C[C@@H](O)[C@H](Cc2ccccc2)NC(=O)CN(CC(N)=O)[C@H]2CCOC2)cc1OC,,,substrate cleavage / FRET,IC50,>1 µM
COc1ccc(S(=O)(=O)N(CC(O)CN2C(=O)C(CCCO)C[C@@H]2Cc2ccccc2)CC2CCCC2)cc1,,,HPLC,Ki,>10 µM
CSCC[C@H](NC(=O)[C@H](CCO)N(Cc1ccccc1)Cc1ccccc1)C(=O)NC(C)(C)C,,,HPLC,IC50,1.73 µM
Cc1cc(NS(C)(=O)=O)cc(C)c1OCC(=O)N[C@@H](Cc1ccccc1)[C@@H](O)C[C@H](Cc1ccccc1)NC(=O)O[C@H]1CO[C@H]2OCC[C@H]21,,,,IC50,0.012 µM
COC(=O)[C@@H]1CCCCN1C(=O)[C@@H]1CSCN1C(=O)[C@@H](O)[C@H](Cc1ccccc1)NC(=O)[C@H](CS(C)(=O)=O)NC(=O)COc1cccc2ccccc12,,,,IC50,>0.05 µM
CC(C)[C@H](NC(=O)[C@H](C)NC(=O)OCc1ccccc1)C(=O)N[C@@H](Cc1ccccc1)[C@@H](O)[C@H](O)[C@H](Cc1ccccc1)NC(=O)[C@@H](NC(=O)[C@H](C)NC(=O)OCc1ccccc1)C(C)C,,PR-V82F,,IC50,0.0149 µM
COc1ccc(CN2CC(=O)N[C@H](Cc3ccccc3)[C@H](O)[C@H]2CO)cc1,IIIB,,,Ki,0.923 µM
CCCC[C@H](NC(=O)c1cnc2ccccc2n1)C(=O)CC(Cc1ccc2ccccc2c1)C(=O)N[C@@H](CCC(N)=O)C(N)=O,,,fluorescence,IC10,7 µM
COC(=O)c1cc(NC(=O)c2nc3ccc(NC(=O)c4cc(NC(=O)OC(C)(C)C)cs4)cc3o2)cs1,,,fluorescence,IC50,17.2 µM
CCCC[C@H](NC(=O)[C@@H](NC(=O)c1cnc2ccccc2n1)[C@@H](C)CC)C(=O)CC(Cc1ccc2ccccc2c1)C(=O)N[C@@H](CCC(N)=O)C(N)=O,,,fluorescence,IC50,7.98 µM
COc1ccc(S(=O)(=O)N(CC2CCCC2)C[C@@H](O)[C@H](Cc2ccccc2)NC(=O)O[C@@H]2CCOC2)cc1,,,HPLC,Ki,<0.0001 µM
CCC(C)C(CO)NC(=O)[C@@H]1CSCN1C(=O)[C@@H](O)[C@H](Cc1ccccc1)NC(=O)[C@H](CS(C)(=O)=O)NC(=O)COc1cccc2ccccc12,,,,IC50,<0.05 µM
COc1ccc(S(=O)(=O)N(CC(O)CN2[C@@H](Cc3ccccc3)CN(Cc3ccccc3)S2(=O)=O)CC2CCCC2)cc1,,,HPLC,Ki,>10 µM
C=CCN1C(=O)N(Cc2ccc(OC)cc2)[C@@H](CO)[C@H](O)[C@@H]1Cc1ccccc1,IIIB,,,Ki,>12.5 µM
O=C(N[C@@H](Cc1ccccc1)[C@H](O)CN(CC1CCCC1)S(=O)(=O)c1ccc(F)cc1)O[C@@H]1CCOC1,,,HPLC,Ki,0.0002 µM
COc1ccc2c(c1)OCCCCCCCC(C)CN(C[C@@H](O)[C@H](Cc1ccccc1)NC(=O)O[C@H]1CO[C@H]3OCC[C@H]31)S2(=O)=O,,,substrate cleavage,Ki,0.00015 µM
C=CC(C)(C)c1[nH]c2ccccc2c1C1=C(O)C(=O)C(c2c(C(C)(C)C=C)[nH]c3ccccc23)=C(O)C1=O,WT,,,Ki,0.97 µM
Cc1ccccc1OCC(=O)N[C@@H](Cc1ccccc1)C[C@H](O)[C@H](Cc1ccccc1)NC(=O)O[C@H]1CO[C@H]2OCC[C@H]21,,,,IC50,<0.0005 µM
CCCC[C@H](NC(=O)c1ccc2ccccc2n1)C(=O)CC(Cc1ccc2ccccc2c1)C(=O)N[C@@H](CCC(N)=O)C(=O)N[C@@H](CCCN=C(N)N)C(N)=O,,,fluorescence,IC50,1.44 µM
CCOC(=O)C1OC1[C@@H]1[C@@H](O)[C@@H](Cc2ccccc2)N(Cc2ccc(OC)cc2)C(=O)N1Cc1ccc(OC)cc1,IIIB,,,Ki,>12.5 µM
CC[C@@H](C)[C@H](NC(=O)[C@@H]1CCCN1C(=O)[C@@H](O)[C@H](CC1CCCCC1)NC(=O)[C@H](CSC)NC(=O)CCc1ccccc1)C(=O)N[C@H](C(N)=O)C(C)C,,,,IC50,>5 µM
COc1ccc(S(=O)(=O)N(CC(O)CN2C(=O)C3(CCCC3)N(C)C[C@@H]2Cc2ccccc2)CC2CCCC2)cc1,,,HPLC,Ki,>20 µM
CSCC[C@H](NC(=O)[C@H](CCO)N(Cc1ccccc1)C(=O)[C@H](Cc1ccccc1)NC(=O)OCc1ccccc1)C(=O)NC(C)(C)C,,,HPLC,IC50,0.62 µM
C=CCCCCOc1cc(OC)ccc1S(=O)(=O)N(CC(C)CC=C)C[C@@H](O)[C@H](Cc1ccccc1)NC(=O)O[C@H]1CO[C@H]2OCC[C@H]21,,,substrate cleavage,Ki,0.0037 µM
COC(=O)CC1NC[C@H](Cc2ccccc2)N(CC(O)CN(CC2CCCC2)S(=O)(=O)c2ccc(OC)cc2)C1=O,,,HPLC,Ki,>20 µM
CCOC(=O)/C=C/[C@@H]1[C@@H](O)[C@@H](Cc2ccccc2)NC(=O)CN1Cc1ccc(OC)cc1,IIIB,,,Ki,0.616 µM
CC[C@@H](C)[C@H](NC(=O)[C@@H]1CCCN1C(=O)[C@@H](O)[C@H](CC1CCCCC1)NC(=O)[C@H](CC(N)=O)NC(=O)COc1cccc2ccccc12)C(=O)N[C@H](C(N)=O)C(C)C,,,,IC50,<5 µM
CCOC(=O)c1cc(C)c(OCC(=O)N[C@@H](Cc2ccccc2)C[C@H](O)[C@H](Cc2ccccc2)NC(=O)O[C@H]2CO[C@H]3OCC[C@H]32)c(C)c1,,,,IC50,<0.0005 µM
CC(=O)C[C@H](NC(=O)c1ccc2ccccc2n1)C(=O)N[C@@H](Cc1ccccc1)[C@@H](O)CN(CC(C)C)S(=O)(=O)c1ccc(NC(C)=O)cc1,,,HPLC,Ki,0.4 µM
O=C(CO)Nc1ccc(C(=O)O)cc1,,,substrate cleavage,IC50,>10 µM
Cc1cc(N(C)C)cc(C)c1OCC(=O)N[C@@H](Cc1ccccc1)C[C@H](O)[C@H](Cc1ccccc1)NC(=O)O[C@H]1CO[C@H]2OCC[C@H]21,,,,IC50,>0.0005 µM
O=C(CCl)/C(=N\O)c1ccc(Cl)cc1,,,,Ki,6.3 µM
CSCC[C@H](NC(=O)[C@H](CO)N(Cc1ccccc1)C(=O)[C@H](Cc1ccccc1)NC(=O)OCc1ccccc1)C(=O)NC(C)(C)C,,,HPLC,IC50,0.37 µM
CC(C)[C@H](NC(=O)[C@@H](NC(=O)[C@@H]1CCCN1C(=O)[C@@H](O)[C@H](Cc1ccccc1)NC(=O)[C@H](CC(N)=O)NC(=O)CCc1ccccc1)C(C)C)C(N)=O,,,,IC50,<5 µM
C=CCN1C(=O)N(Cc2ccc(OC)cc2)[C@@H](C(=O)OCC)[C@H](O)[C@@H]1Cc1ccccc1,IIIB,,,Ki,>12.5 µM

For reference, 5 entries again:

| SMILES | strain or isolate | changes | read by | read-out | result |
|---|---|---|---|---|---|
| CC(C)[C@H](NC(=O)[C@@H](NC(=O)[C@@H]1CCCN1C(=O)[C@@H](O)[C@H](Cc1ccccc1)NC(=O)[C@H](CC(N)=O)NC(=O)CCc1ccccc1)C(C)C)C(N)=O |  |  |  | IC50 | <5 µM |
| C=CC(C)(C)c1[nH]c2ccccc2c1C1=C(O)C(=O)C(c2c(C(C)(C)C=C)[nH]c3ccccc23)=C(O)C1=O | WT |  |  | Ki | 0.97 µM |
| COc1ccc(CCOC(=O)[C@H]2[C@H](O)[C@H](Cc3ccccc3)NC(=O)N2Cc2ccc(OC)cc2)cc1 | IIIB |  |  | Ki | >12.5 µM |
| COc1ccc(S(=O)(=O)N(CC(O)CN2C(=O)C(CCCO)C[C@@H]2Cc2ccccc2)CC2CCCC2)cc1 |  |  | HPLC | Ki | >10 µM |
| COc1ccc2c(c1)OCCCCCCCC(C)CN(C[C@@H](O)[C@H](Cc1ccccc1)NC(=O)O[C@H]1CO[C@H]3OCC[C@H]31)S2(=O)=O |  |  | substrate cleavage | Ki | 0.00015 µM |

ICn is the concentration giving n% inhibition. An empty or dashed field is not shown.